Measured values published in patent US20100119479A1, “THERAPEUTIC ANTIVIRAL PEPTIDES” (INTERMUNE, INC., priority 2008, published 2010).
The structures given here were assigned with low confidence; some may be wrong.

Amino acid sequences for entries named in this document (tags omitted). Residues count along the entry.
UniProt Q9WMX2, 1027-1657 limits assumed: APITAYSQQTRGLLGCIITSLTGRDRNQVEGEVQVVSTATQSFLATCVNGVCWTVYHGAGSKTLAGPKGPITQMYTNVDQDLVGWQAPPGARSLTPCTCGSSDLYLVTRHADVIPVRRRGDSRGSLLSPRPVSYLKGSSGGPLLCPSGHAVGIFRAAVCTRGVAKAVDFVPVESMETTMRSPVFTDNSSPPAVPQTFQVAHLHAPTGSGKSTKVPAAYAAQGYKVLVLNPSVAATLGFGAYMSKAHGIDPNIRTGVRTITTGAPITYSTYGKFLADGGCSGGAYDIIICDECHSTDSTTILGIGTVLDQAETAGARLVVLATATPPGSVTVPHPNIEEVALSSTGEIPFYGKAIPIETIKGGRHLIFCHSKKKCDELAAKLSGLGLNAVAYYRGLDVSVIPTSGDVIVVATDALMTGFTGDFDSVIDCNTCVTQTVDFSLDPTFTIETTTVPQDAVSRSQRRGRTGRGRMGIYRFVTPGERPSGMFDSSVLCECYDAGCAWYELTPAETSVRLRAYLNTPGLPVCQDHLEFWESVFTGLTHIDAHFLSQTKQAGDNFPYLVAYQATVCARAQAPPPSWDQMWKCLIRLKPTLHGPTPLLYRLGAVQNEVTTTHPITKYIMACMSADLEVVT
UniProt Q9WMX2, 1658-1711 partner limits assumed: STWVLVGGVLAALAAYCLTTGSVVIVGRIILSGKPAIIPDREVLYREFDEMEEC

How the values were obtained:
[1] = biological target: full-length NS3/NS4A-2 (HCV NS3 protease) (Hepatitis C virus genotype 1b, UniProt Q9WMX2); assay: NS3 Inhibition Assay (NS3-NS4 protease assay, RETS1 substrate); assay type: biochemical; conditions: NS3/NS4A-2 protease
Procedure: NS3 Complex Formation with NS4A-2.
Recombinant E. coli or Baculovirus full-length NS3 was diluted to 3.33 μM with assay buffer and transferred material to an eppendorf tube and placed in a water bath in a 4° C. refrigerator. The appropriate amount of NS4A-2 diluted to […] in assay buffer was added to equal the volume of NS3 above (conversion factor—3.8 mg/272 μL assay buffer). The material was transferred to an eppendorf tube and placed in water bath in a 4° C. refrigerator.
After equilibration to 4° C., equal volumes of NS3 and NS4A-2 solutions were combined in an eppendorf tube, mix gently with a manual pipettor, and incubate mixture for 15 minutes in the 4° C. water bath. Final concentrations in the mixture are 1.67 μM NS3, 4.15 mM NS4A-2 (2485-fold molar excess NS4A-2).
After 15 minutes at 4° C., the NS3/NS4A-2 eppendorf tube was removed and place it in a room temperature water bath for 10 minutes. […]
The plate was read in kinetic mode on the Molecular Devices SpectraMax Gemini XS plate reader. Reader settings: Read time: 30 minutes, Interval: 36 seconds, Reads: 51, Excitation λ: 335 nm, Emission λ: 495 nm, cutoff: 475 nm, Automix: off, Calibrate: once, PMT: high, Reads/well: 6, Vmax pts: 21 or 28/51 depending on length of linearity of reaction
IC50s are determined using a four parameter curve fit equation, and converted to Ki's using the following Km's: […]

[2] = tested on: HCV sub-genomic replicon, GS4.3 (HuH-7 hepatoma cells); assay: Quantitation by ELISA of NPTII in the HCV sub-genomic replicon, GS4.3; assay type: cell-based, hepatitis C virus (HCV); conditions: GS4.3 replicon cells, 72 h incubation
Procedure: Quantitation by ELISA of the Selectable Marker Protein, Neomycin Phosphotransferase II (NPTII) in the HCV Sub-Genomic Replicon, GS4.3
The HCV sub-genomic replicon (1377/NS3-3′, accession No. AJ242652), stably maintained in HuH-7 hepatoma cells, was created by Lohmann et al. Science 285: 110-113 (1999). The replicon-containing cell culture, designated GS4.3, was obtained from Dr. Christoph Seeger of the Institute for Cancer Research, Fox Chase Cancer Center, Philadelphia, Pa. […]
24 h prior to the assay, GS4.3 cells were collected, counted, and plated in 96-well plates (Costar 3585) at 7500 cells/well in […] standard maintenance medium (above) and incubated in the conditions above. […]
An NPTII Elisa kit was obtained from AGDIA, Inc. (Compound direct ELISA test system for Neomycin Phosphotransferase II, PSP 73000/4800). […] Plates were read at 450 nm on a Molecular Devices Versamax plate reader.
Inhibitor effect was expressed as a percentage of DMSO-treated control signal, and inhibition curves were calculated using a 4-parameter equation: y=A+((B−A)/(1+((C/x)̂D))), where C is half-maximal activity or EC50.

For `CC[C@@H]1C[C@]1(NC(=O)[C@@H]1C[C@@H](OC(=O)N2Cc3cccc(F)c3C2)CN1C(=O)[C@@H](Nc1cccc(C(F)(F)F)c1)C(C)(C)C)C(=O)NS(=O)(=O)C1CC1`, which IC50 [1] is on record?
The IC50 was less than 100 nM.

And the EC50 [2]?
The EC50 was less than 100 nM.
